Literature values, collected in patent US4942154A, “Steroidal glycolipids as host resistance stimulators against viral infection” (priority 1987, dated 1990).

System: AIDS / AIDS-related complex (ARC)
Details: human, in vivo; cited from earlier work

Interleukin-2: Protein made by white blood cells that mediates production of interferon
clinical effect in AIDS / ARC patients: not encouraging
